Ends that are not written are not given here.
Tests used:
Experiment in all cases: CACE single-cell analysis: loading and release of cargo
[1] = tested on: RBL cells; format: cell-based, rat; settings: all cells
[2] = tested on: HT1080 cells; format: cell-based, human
[3] = tested on: HT1080/PTEN cells; format: cell-based, human; settings: 1 μM extracellular

Row | Sequence | peaks on electrophoretic trace ([1]; 750 nM extracellular, n=3) | peaks on electrophoretic trace ([1]; 3 μM extracellular, n=4) | cells with only non-phosphorylated and phosphorylated F-PKB-C peaks ([2]; 215 nM extracellular, n=6) [%] | cells with only two peaks (non-phosphorylated and phosphorylated F-PKB-C) ([2]; 1 μM extracellular, n=15) [%] | electrophoretic traces with multiple peaks other than non-phosphorylated and phosphorylated F-PKB-C ([2]; 1 μM extracellular, n=85) [%] | peaks on electrophoretic trace ([3]; DTT added before lysis and to electrophoretic buffer) | cells with a single peak (F-PKB-C) ([3]; n=19) [%] | cells with multiple peaks ([3]; n=19) [%] | peaks on electrophoretic trace ([3]; UVA 10 s, all cells, n=6, migration time of F-PKB standard)
1 | GRPRAATFAEGCRKKRRQRRR [F-PKB-C-SS-TAT, F-PKB-C conjugated to TAT(49-57) via a disulfide bond] | no additional peaks | multitude of peaks | 67 | 15 | 85 | a single peak | 30 | 70 | 
2 | GRPRAATFAEGRKKRRQRRR [F-PKB-PLL-TAT, fluorescein-PKB substrate-photolabile linker-TAT(49-57)] |  |  |  |  |  |  |  |  | a single peak

Reference: patent US20050282239A1, “Cell-permeable enzyme activation reporter that can be loaded in a high throughput and gentle manner” (priority 2003, published 2005)
